Source: ChEMBL document CHEMBL3988442, “University of Dundee, Small-Polar-MMV Screening Library” (2021).

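Whole-cell growth test on Mycobacterium tuberculosis, read after 3 days in glucose-containing 7H9 medium; the read-out is not stated. Compounds at 500 µM. The record gives no direction; compounds that gave an IC50 in retests scored well above the rest, so higher reads as more growth inhibition. Size under these conditions: about 18,000 compounds, about 1,400 of them at 50% or above in at least one test.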

The filed quantity is “Percent Effect” (%).
The controls that fix the scale are not given in the record; negative values are as filed.
The entries come from a sample that favours strong results.

compound,Percent Effect
Cc1ccc(CCN2CCN(S(N)(=O)=O)CC2)cc1,8.263
CS(=O)(=O)NCc1cnn(-c2ccccc2)c1,14.56
C[C@H](N)c1ccco1,11.44
NC(=O)C1(N)CCOCC1,-3.953
Cn1nnnc1SCCC(=O)Nc1ccc(F)cc1,1.469
CCc1noc(C)c1C(=O)NCC1CCCO1 (configuration not stated),12.1
O=C(c1cnccn1)N1CCN(Cc2ccsc2)CC1,15.57
CC(C)(C)c1nc(C(C)(C)N)no1,0.2492
COc1ccnc(CN2CCCCC(N)C2)c1OC (configuration not stated),13.44
CC(=O)Nc1cc(Br)cnc1NC(C)=O,5.191
Cc1cc(C)cc(NC(=O)CCN2CCSCC2)c1,-14.56
Cc1ccc(S(=O)(=O)Nc2cccc(C)n2)cc1,20.29
CC(=O)N1CCN(CCNC(=O)Nc2nncs2)CC1,-1.51
CS(=O)(=O)c1nccn1CCOc1ccccc1,30.5
CCCc1nc(C(=O)NCCc2cccnc2)cs1,74.85
CCO[C@H]1CN(CCCc2ccco2)C[C@@H]1O,8.904
NCCCOc1ncc(C(F)(F)F)cc1Cl,74.81
CCC[C@H]1CN(C(=O)c2ccnc(NC)c2)C[C@@H]1N,13.09
CCOc1ncc(C(=O)N(C)C)cc1Cl,17.36
COCC(NC(=O)c1ccsc1)C(N)=O (configuration not stated),6.257
NC(c1ccc2c(c1)OCCO2)C1CC1 (configuration not stated),12.18
NCc1cccc(S(=O)(=O)NCc2cccc(F)c2)c1,55.11
CN(C)c1nc(N)nc(CN2CCC(C(N)=O)CC2)n1,-4.229
Cc1ccc(CNCCOc2ccccn2)o1,50.76
CN(C)CCOc1ccc(C#N)cc1,12.22
O=C(Cc1n[nH]c(=O)c2ccccc12)N1CCC1,-7.139
CCOc1cc(C(=O)NCc2ccc(C)n2C)ccn1,38.44
COc1ccccc1OCC(=O)NCC1CCOCC1,22.52
O=C(NCc1cccnc1)c1ccc(C(F)(F)F)nc1,18.87
NC(CCO)Cc1ccccc1 (configuration not stated),20.43
CC1CC(=O)NCCN1 (configuration not stated),52.48
CS(=O)(=O)Cc1cccc(CN)c1,4.366
CC(C)NC(=O)c1nnn(-c2cccc(Br)c2)c1N,-2.211
CCCC1CCN(CC(=O)NCc2cccnc2)C1 (configuration not stated),13.6
CC(C)CCOCC(=O)NC1CCc2nccn2C1 (configuration not stated),-2.2
CN(C(=O)c1cnn2cccnc12)C1CCCC1,0.4291
N#Cc1cc(Br)ccc1N1CCN(C(=O)CO)CC1,38.99
COC1CCN(C(=O)CCc2csc(C)n2)CC1,36.18
COc1ccc2oc(C(=O)NC(C)C(N)=O)c(C)c2c1 (configuration not stated),7.445
CO[C@H]1CN[C@H](c2nncn2C)C1,17.05
CN(CCCO)C(=O)c1ccc(Cl)cc1F,18.55
Cn1cc(I)c(CN)n1,29.54
CCc1cccc(CN)c1,2
CC(C)CC(NC(N)=O)C(=O)Nc1cc(F)cc(F)c1 (configuration not stated),56.34
CCN1CCN(C(=O)Nc2cc(C)ccc2OC)CC1,25.4
CN(C)C(=O)CNc1ccc(OC(F)F)c(Cl)c1,-14.35
NCC(=O)N(CC1CCCCC1)C1CC1,15.01
CCOc1ccc(C(=O)CCN(C)C)cc1,105.1
CNC(=O)NC(=O)CSc1nnc(-c2ccccc2)o1,-5.164
CC(N)c1ccccc1-n1cccn1 (configuration not stated),18.75
COCCCNC(=O)C(C)N(C)CC(C)C (configuration not stated),10.4
COc1ccc(NC(=O)N(C)CCO)c(Br)c1,27.84
O=C(NCCCn1ncc2ccccc21)C1CC1,67.65
NCCc1ccc(-n2cccn2)cc1,73.55
CC(C)c1ccc2c(c1)C(N)C(=O)N2 (configuration not stated),87.47
CN(C(=O)CSc1nnc(N)s1)C1CCS(=O)(=O)C1 (configuration not stated),-6.141
Cc1nc(CN2CCN(c3ncc(Br)cn3)CC2)n[nH]1,-10.05
NC1(CO)CCOc2ccccc21 (configuration not stated),4.726
CCOc1ccc2cc(S(=O)(=O)NCCO)ccc2c1,101.6
CC(=O)c1ccc(C(=O)NC(C)c2nc(C)c[nH]2)s1 (configuration not stated),-2.637
c1nnc(SC2CCOCC2)s1,22.13
O=C(NCCCOC(F)F)NCc1cccnc1,-1.799
CNc1cccc(S(C)(=O)=O)c1,6.956
CN(C)c1ccc(CCNC(=O)[C@H]2CCCN2)cc1,17.08
CCCC(=O)Nc1ccc(N2CCN(C)CC2)cc1C,-18.18
O=C(Nc1cc(F)ccc1F)c1cnccn1,-11.44
CC(C)(C)OC(=O)N1CCC(CO)C(F)(F)C1 (configuration not stated),34.05
COCC(=O)NC(C)Cc1ccco1 (configuration not stated),30.18
CCCNC(=O)Nc1ccc(CN2CCOCC2)cc1,2.513
c1nc(C2CNCCO2)no1 (configuration not stated),-6.725
CCC1(CO)CCCN(CC(=O)Nc2ccn(C)n2)C1 (configuration not stated),33.8
CCC(C)NCC(=O)OC (configuration not stated),-8.79
NCc1cccc(S(=O)(=O)C(F)(F)F)c1,13.62
Cc1cccc(NC(C)Cn2cncn2)n1 (configuration not stated),-9.363
CCn1ncc(C(C)N)c1C (configuration not stated),-0.08521
COCc1cc(N2CCCC(CO)C2)n2nccc2n1 (configuration not stated),16.27
COC(=O)c1[nH]cc(-c2ccccc2)c1N,58.36
CC(N)c1ccccc1NS(C)(=O)=O (configuration not stated),3.139
CC(Sc1nc[nH]n1)C(=O)NCc1ccccc1 (configuration not stated),8.28
Cc1cc(C)nc(N2CCC2)n1,4.606
CC(C#N)CN(C)S(=O)(=O)N1CCCN(CCO)CC1 (configuration not stated),-2.506
CCC(CC)c1cc(N)on1,19.27

Some entries from above, unchanged:

{"compound": "O=C(Nc1cc(F)ccc1F)c1cnccn1", "Percent Effect": -11.44}
{"compound": "CC(C)CCOCC(=O)NC1CCc2nccn2C1", "stereo": "configuration not stated", "Percent Effect": -2.2}
{"compound": "Cc1cc(C)cc(NC(=O)CCN2CCSCC2)c1", "Percent Effect": -14.56}
{"compound": "CC(=O)c1ccc(C(=O)NC(C)c2nc(C)c[nH]2)s1", "stereo": "configuration not stated", "Percent Effect": -2.637}
{"compound": "CCN1CCN(C(=O)Nc2cc(C)ccc2OC)CC1", "Percent Effect": 25.4}